Results of unrelated studies side by side (data: NIAID ChemDB).

Shared fields: target-level tests; organism: HIV-1; target: Reverse transcriptase; method: nucleotide incorporation / radiometric; endpoint: IC50

Conditions beyond the fields shown may differ between rows.

compound | mutations | strain or isolate | value
C[C@H](Cc1cnc2c(N)ncnn12)OCP(=O)(O)OP(=O)(O)OP(=O)(O)O |  |  | <0.05 µM
CCN1c2ncc(CC(=O)c3ccncc3)cc2C(=O)N(C)c2ccc(Cl)nc21 | RT-Y181C |  | <1 µM
CC(C)(Cc1cnn2c(=O)[nH]c(N)nc12)OCP(=O)(O)OP(=O)(O)OP(=O)(O)O |  |  | ≥0.25 µM
CCc1ccc(-n2c(Br)nnc2SCC(=O)Nc2ccc(C(=O)NCCO)cc2Cl)c2ccccc12 | RT-Y188L |  | 0.05–0.1 µM
N#Cc1cc(Cl)cc(Oc2cc(OCc3[nH]nc4ncccc34)ccc2Cl)c1 |  |  | <20 µM
NS(=O)(=O)c1ccc(NC(=O)CSc2nnc(Br)n2-c2ccc(C3CC3)c3c2CCCC3)c(Cl)c1 | RT-Y188L |  | >0.1 µM
COC1CN(c2ccc3c(COc4ccc(Cl)c(Oc5cc(Cl)cc(C#N)c5)c4)[nH]nc3n2)C1 |  |  | <20 µM
COC(=O)C(OCC1OC(n2cc(C)c(=O)[nH]c2=O)CC1N=[N+]=[N-])P(=O)(O)OP(=O)(O)OP(=O)(O)O |  |  | 63 µg/mL
NS(=O)(=O)c1ccc(NC(=O)CSc2nnc(Br)n2-c2ccc(C3CC3)cc2)c(Cl)c1 | RT-Y188L |  | >0.1 µM
CCN1c2ncccc2C(=O)N(C)c2ccc(-c3cc[nH]c3C#N)nc21 | RT-Y181C |  | <1 µM
CCN1c2ncc(CCc3ccnc(C)c3)cc2C(=O)N(C)c2ccc(Cl)nc21 |  | WT | <1 µM
CCN1c2ncc(CCOc3ccc(/C=C(\C)C(=O)O)c4ccccc34)cc2C(=O)Nc2c(C)cc(Cl)nc21 | RT-K103N Y181C |  | 0.1–1 µM
CCN1c2ncccc2C(=O)N(C)c2ccc(-c3cccn3C(C)=O)nc21 | RT-Y181C |  | <1 µM
COC(=O)C(OCC1OC(n2cc(C)c(=O)[nH]c2=O)CC1N=[N+]=[N-])P(=O)(O)O |  |  | >100 µg/mL
CCN1c2ncc(CCc3ccncc3)cc2C(=O)N(C)c2ccc(CCc3ccncc3)nc21 | RT-Y181C |  | >1 µM
CCc1ccc(-n2c(Br)nnc2SCC(=O)Nc2ccc(C(=O)NCC(C)O)cc2Cl)c2ccccc12 |  |  | <0.05 µM
C[C@H](Cc1ncc2c(N)ncnn12)OCP(=O)(O)OP(=O)(O)OP(=O)(O)O |  |  | ≥0.25 µM
NS(=O)(=O)c1ccc(NC(=O)CSc2nnc(Cl)n2-c2ccc(C3CC3)c3ccccc23)c(Cl)c1 | RT-Y181C |  | <0.05 µM
CCN1c2ncccc2C(=O)N(C)c2ccc(-c3c[nH]c(C#N)c3)nc21 | RT-Y181C |  | <1 µM
CCN1c2ncc(CCOc3ccc(CC(=O)NN)c4ccccc34)cc2C(=O)N(C)c2cccnc21 | RT-V106A |  | 0.1–1 µM
CC(Cc1ccc2c(N)nc(N)nn12)OCP(=O)(O)OP(=O)(O)OP(=O)(O)O |  |  | ≥0.25 µM
Cc1cc(S(=O)(=O)O)ccc1NC(=O)CSc1nnc(C(F)F)n1-c1ccc(C)c2c1CCCC2 | RT-Y181C |  | >0.1 µM
N#Cc1cc(Cl)cc(Oc2c(Cl)ccc(Cc3nn(COC(=O)CCC(=O)O)c4nnccc34)c2F)c1 |  |  | 0.0074 µM
CCN1c2ncc(CCOc3cccc4c3CS(=O)(=O)N4Cc3cc[n+]([O-])cc3)cc2-c2ncc(C)n2-c2cccnc21 |  |  | <0.05 µM
CN1C(=O)c2cccnc2N(C2CC2)c2nc(-c3cc[nH]c3)ccc21 |  | WT | <1 µM
Cc1cc(C2CC2)cc(Cl)c1-n1c(Br)nnc1SCC(=O)Nc1ccc(C(=O)O)cc1Cl | RT-Y188L |  | >0.1 µM
CCN1c2ncc(CCOc3ccc(NS(=O)(=O)C(F)(F)F)c4ccccc34)cc2C(=O)N(C)c2ccc(F)nc21 | RT-K103N Y181C |  | 0.1–1 µM
COc1cccc2c(-n3c(Br)nnc3SCC(=O)Nc3ccc(C(=O)O)cc3Cl)cccc12 | RT-Y181C |  | 0.05–0.1 µM
Cc1cc(C)cc(S(=O)(=O)c2c(C(=O)NCCO)[nH]c3ccc(Cl)cc23)c1 | RT-Y188L |  | >40 µM
CCN1c2ncc(CCOc3ccc(CC(=O)O)c4ccccc34)cc2C(=O)Nc2c(C)cc(F)nc21 |  | WT | <0.1 µM
CN1C(=O)c2cccnc2N(C)c2nc(-c3ccc[nH]3)ccc21 | RT-Y188L |  | >1 µM
CCc1ccc(-n2c(Br)nnc2SCC(=O)Nc2ccc(S(=O)(=O)O)cc2Br)c2ccccc12 | RT-Y188L |  | 0.05–0.1 µM
CCN1c2ncc(CCOc3cccc4c3CNC(=O)N4)cc2-c2nc(C)cn2-c2cccnc21 |  |  | <0.05 µM
NS(=O)(=O)c1ccc(NC(=O)CSc2nncn2-c2ccc(C3CC3)c3ccccc23)c(Cl)c1 |  |  | <0.05 µM
CCN1c2ncc(CCOc3cccc4c3CCS(=O)(=O)N4)cc2-c2ncc(C)n2-c2cccnc21 |  |  | <0.05 µM
Nc1nc2c(ncn2[C@H]2CC[C@@H](COP(=O)(O)OP(=O)(O)OP(=O)(O)O)O2)c(=O)[nH]1 |  | NL4-3 | 0.7 µM
CCN1c2ncc(/C=C\c3cn[nH]c3)cc2C(=O)Nc2c(C)ccnc21 | RT-Y181C |  | >1 µM
CCN1c2ncc(CCOc3ccc(C(=O)O)cc3C)cc2-c2nccn2-c2cccnc21 |  |  | <0.05 µM
Cc1cc(S(N)(=O)=O)ccc1NC(=O)CSc1nnc(Br)n1-c1ccc(C2CCC2)c2ccccc12 |  |  | <0.05 µM
CS(=O)(=O)c1ccc2c(c1)CCN2C(=O)COc1cc(Cl)cc(Oc2cc(Cl)cc(C#N)c2)c1 |  |  | <20 µM
Cc1cc(S(N)(=O)=O)ccc1NC(=O)CSc1nnc(CF)n1-c1c(C)cc(C)c2ccccc12 | RT-Y181C |  | >0.1 µM
Cc1cn(C2CC(N=[N+]=[N-])C(COC(C(=O)O)P(=O)(O)OP(=O)(O)O)O2)c(=O)[nH]c1=O |  |  | 109 µg/mL
Nc1ncnc2c(C[C@H](CF)OCP(=O)(O)OP(=O)(O)OP(=O)(O)O)cnn12 |  |  | <0.05 µM
N#Cc1cc(Cl)cc(Oc2cc(OCc3[nH]nc4nc(N5CCNCC5)ccc34)ccc2Cl)c1 |  |  | <20 µM
CCN1c2nc(Cl)ccc2NC(=O)c2cc(CCc3cccc(NS(C)(=O)=O)c3)cnc21 | RT-Y181C |  | <1 µM
O=C(CSc1nnc(Br)n1-c1ccc(C2CC2)c2ccccc12)Nc1ccc(C(=O)O)cc1Cl | RT-Y188L |  | 0.05–0.1 µM
CCN1c2ncc(CCOc3cccc4c3CS(=O)(=O)N4)cc2-c2nccn2-c2c(C)ccnc21 | RT-K103N Y181C |  | 0.05–0.1 µM
Nc1ncnn2c(C[C@@H](CF)OCP(=O)(O)OP(=O)(O)OP(=O)(O)O)cnc12 |  |  | 0.05–0.25 µM
NS(=O)(=O)c1ccc(NC(=O)COc2cccc(Oc3ccccc3)c2)c(Cl)c1 |  |  | <20 µM
Cc1cc(S(N)(=O)=O)ccc1NC(=O)CSc1nnc(Br)n1-c1ccc(C2CC2)c2ccccc12 | RT-Y188L |  | >0.1 µM
N#Cc1cc(C#N)cc(Oc2cc(Cl)cc(OCC(=O)Nc3ccc(S(N)(=O)=O)cc3Cl)c2)c1 |  |  | <20 µM
Cc1cc(S(N)(=O)=O)ccc1NC(=O)CSc1nnc(Br)n1-c1c(Cl)cc(C2CCC2)c2ccccc12 | RT-Y188L |  | 0.05–0.1 µM
Cc1cn([C@H]2C[C@H](N=[N+]=[N-])[C@@H](COP(=O)(O)OP(=O)(O)OP(=O)(O)OP(=O)(O)OC[C@H]3O[C@@H](n4cnc5c(N)ncnc54)[C@H](O)[C@@H]3O)O2)c(=O)[nH]c1=O |  | WT | 0.26 µM
CCc1ccc(-n2c(Br)nnc2SCC(=O)Nc2ccc(C(=O)O)cc2Br)c2ccccc12 | RT-Y181C |  | <0.05 µM
CCN1c2ncccc2C(=O)N(C)c2ccc(-c3cnn(C)c3)nc21 | RT-Y181C |  | >1 µM
NS(=O)(=O)c1ccc(NC(=O)CSc2nnc(Br)n2-c2ccc(C3CC3)cc2Cl)c(Cl)c1 |  |  | <0.05 µM
CCN1c2ncccc2C(=O)N(C)c2ccc(-c3cn[nH]c3)nc21 | RT-Y188L |  | <1 µM
CCc1ccc(-n2c(I)nnc2SCC(=O)Nc2ccc(S(N)(=O)=O)cc2Cl)c2ccccc12 | RT-Y188L |  | >0.1 µM
CCN1c2ncccc2C(=O)N(C)c2ccc(-c3cnn(C(C)=O)c3)nc21 | RT-Y188L |  | <1 µM
CC(Cc1ccc2c(N)nc(F)nn12)OCP(=O)(O)OP(=O)(O)OP(=O)(O)O |  |  | <0.05 µM
CCOC(=O)CCNC(=O)c1ccc(NC(=O)CSc2nnc(Br)n2-c2ccc(CC)c3ccccc23)c(Cl)c1 | RT-Y181C |  | <0.05 µM

Two numbers with a dash give a range or band. An empty or dashed field is not shown. ICn: concentration for n% inhibition.